In article PMC10088716:
Where “and” joins values, the source holds several entries; their conditions need not be identical. Equal entries are not always repeated.

Molecular target: SARS-CoV-2 RBD-His, wild type (tPA-RBD-his) (SARS-CoV-2)
Assay: SPR

In the case of ACE2-hFc (Fc fusion), the Kd is reported as 43.2 nM and 99.6 nM.
